{"source": "PubChem BioAssay AID504761 (Drosophila RNAi Screening Center, 2011)", "screen": "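Insect host genes that dengue virus relies on to spread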 (primary screen)", "system": "D.Mel-2 cells from Drosophila", "reagents": "long dsRNA against Drosophila genes", "treatment": "infection with dengue virus type 2; dose and infection time not stated", "detection": "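Per well on two replicate plates, imaging gave the percent of cells positive for viral envelope protein, ranked by infection, and a nuclear count of cells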", "direction": "infection score: higher = more virus-infected cells; cell count: higher = more cells in the well", "hit rule": "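Low infection ranks in the two replicates (chance level up to 0.065) followed by a retest with a 1.5-fold or larger significant decrease, p below 0.05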", "calls": "active = confirmed: knock-down lowers infection; inactive = not picked or not confirmed", "note": "The deposit covers about 22,000 reagents; shown is an unselected part of those with a known target gene and a result. Of all reagents, 116 (0.52%) got an active call. 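Calls depend on retest data that are not deposited; infection was ranked per plate without normalising between plates; the unit of the infection score is not given.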 Raw values vary from plate to plate and are shown uncorrected. A number with no mark means an inactive call. Not all columns of the deposit are shown. No sequences are given here. Not given: the amount of reagent, the time to read-out."}
{"target gene": "CG12857", "amplicon": "DRSC06197", "infection score, replicate 1": 11.8, "cell count, replicate 1": 6297}
{"target gene": "CG8252", "amplicon": "DRSC07126", "infection score, replicate 1": 4.97, "cell count, replicate 1": 6435}
{"target gene": "CG8252", "amplicon": "DRSC29694", "infection score, replicate 1": 21.4, "cell count, replicate 1": 5901}
{"target gene": "TrpRS-m", "amplicon": "DRSC10848", "infection score, replicate 1": 10.5, "cell count, replicate 1": 4719}
{"target gene": "l(1)sc", "amplicon": "DRSC18789", "infection score, replicate 1": 0.61, "cell count, replicate 1": 6426}
{"target gene": "l(1)sc", "amplicon": "DRSC28734", "infection score, replicate 1": 18, "cell count, replicate 1": 4758}
{"target gene": "rumpel", "amplicon": "DRSC18436", "infection score, replicate 1": 1.79, "cell count, replicate 1": 6542}
{"target gene": "CG8492", "amplicon": "DRSC10984", "infection score, replicate 1": 4.75, "cell count, replicate 1": 6292}
{"target gene": "CG8492", "amplicon": "DRSC21804", "infection score, replicate 1": 3.59, "cell count, replicate 1": 557}
{"target gene": "pHCl-2", "amplicon": "DRSC14306", "infection score, replicate 1": 1.22, "cell count, replicate 1": 737}
{"target gene": "zfh1", "amplicon": "DRSC17098", "infection score, replicate 1": 9.53, "cell count, replicate 1": 5206}
{"target gene": "zfh1", "amplicon": "DRSC26931", "infection score, replicate 1": 6.33, "cell count, replicate 1": 4583}
{"target gene": "Rh5", "amplicon": "DRSC03412", "infection score, replicate 1": 15.6, "cell count, replicate 1": 6105}
{"target gene": "Rh5", "amplicon": "DRSC25429", "infection score, replicate 1": 5.79, "cell count, replicate 1": 5613}
{"target gene": "CG18746", "amplicon": "DRSC15383", "infection score, replicate 1": 10.5, "cell count, replicate 1": 5597}
{"target gene": "CG43740", "amplicon": "DRSC23267", "infection score, replicate 1": 2.83, "cell count, replicate 1": 5805}
{"target gene": "Amnionless", "amplicon": "DRSC00317", "infection score, replicate 1": 20.4, "cell count, replicate 1": 6312}
{"target gene": "CAH14", "amplicon": "DRSC04234", "infection score, replicate 1": 5.23, "cell count, replicate 1": 6802}
{"target gene": "CAH14", "amplicon": "DRSC22160", "infection score, replicate 1": 7.78, "cell count, replicate 1": 4728}
{"target gene": "COX4L", "amplicon": "DRSC04841", "infection score, replicate 1": 9.15, "cell count, replicate 1": 5768}
{"target gene": "CG13868", "amplicon": "DRSC06427", "infection score, replicate 1": 12, "cell count, replicate 1": 4194}
{"target gene": "eIF1A", "amplicon": "DRSC16937", "infection score, replicate 1": 7.16, "cell count, replicate 1": 5113}
{"target gene": "pps", "amplicon": "DRSC16057", "infection score, replicate 1": 2.7, "cell count, replicate 1": 5954}
{"target gene": "pps", "amplicon": "DRSC23652", "infection score, replicate 1": 5.02, "cell count, replicate 1": 5423}
{"target gene": "pps", "amplicon": "DRSC26594", "infection score, replicate 1": 1.3, "cell count, replicate 1": 6022}
{"target gene": "RhoGEF4", "amplicon": "DRSC11011", "infection score, replicate 1": 15.8, "cell count, replicate 1": 4931}
{"target gene": "RhoGEF4", "amplicon": "DRSC26016", "infection score, replicate 1": 7.57, "cell count, replicate 1": 5763}

An excerpt of the results above, for reference:
{"target gene": "Amnionless", "amplicon": "DRSC00317", "infection score, replicate 1": 20.4, "cell count, replicate 1": 6312}
{"target gene": "CAH14", "amplicon": "DRSC04234", "infection score, replicate 1": 5.23, "cell count, replicate 1": 6802}
{"target gene": "CAH14", "amplicon": "DRSC22160", "infection score, replicate 1": 7.78, "cell count, replicate 1": 4728}
